Tested on: A/WSN/1933 (H1N1)
Assay: in vitro selection of escape viruses by passaging in MDCK cells
Assay type: cell-based, influenza A virus

Structure (SMILES) | Highest does at CPE observed (Passage number 1) | Highest does at CPE observed (Passage number 2) | Highest does at CPE observed (Passage number 3) | Highest does at CPE observed (Passage number 4) | Highest does at CPE observed (Passage number 4, listed as nuclozin) | viral titer of 3rd passage virus normalized to HAU (virus passaged with the compound, WT 2.19×10^5 PFU/mL per HAU)
Cc1onc(-c2ccccc2)c1C(=O)N1CCN(c2ccc([N+](=O)[O-])cc2Cl)CC1 [Nucleozin, nucleozin, reference compound] | 0.3 µM | 1.0 µM | 3.0 µM | 10 µM | up to 10 μM | 
O=C(O)c1cc(-c2ccc(-c3ccccc3)cc2)nc2ccccc12 [RK424] | 0.2 µM | 0.6 µM | 0.3 µM | no CPE occurred |  | 1.41×10^3 PFU/mL per HAU
